Paper PMC6882899 (Scientific Reports, 2019)

By UniProt entry, the sequences of proteins in these tests, tags left out. Residues count along the entry.
UniProt Q5U3D9, 1-481 E327D/S330F: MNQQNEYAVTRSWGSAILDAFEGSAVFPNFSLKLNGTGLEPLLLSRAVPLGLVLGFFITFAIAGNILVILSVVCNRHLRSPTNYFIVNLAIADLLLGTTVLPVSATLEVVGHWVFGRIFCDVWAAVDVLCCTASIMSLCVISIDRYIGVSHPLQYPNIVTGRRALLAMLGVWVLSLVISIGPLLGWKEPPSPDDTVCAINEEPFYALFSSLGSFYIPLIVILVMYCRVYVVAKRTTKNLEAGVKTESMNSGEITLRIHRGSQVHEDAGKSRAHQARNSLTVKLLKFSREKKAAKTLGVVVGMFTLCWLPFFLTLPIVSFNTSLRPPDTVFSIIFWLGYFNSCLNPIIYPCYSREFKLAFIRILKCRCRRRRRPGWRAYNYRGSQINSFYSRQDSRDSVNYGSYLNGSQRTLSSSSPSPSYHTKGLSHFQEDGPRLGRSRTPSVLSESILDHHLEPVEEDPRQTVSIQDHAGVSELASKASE
UniProt Q5U3D9, 1-481: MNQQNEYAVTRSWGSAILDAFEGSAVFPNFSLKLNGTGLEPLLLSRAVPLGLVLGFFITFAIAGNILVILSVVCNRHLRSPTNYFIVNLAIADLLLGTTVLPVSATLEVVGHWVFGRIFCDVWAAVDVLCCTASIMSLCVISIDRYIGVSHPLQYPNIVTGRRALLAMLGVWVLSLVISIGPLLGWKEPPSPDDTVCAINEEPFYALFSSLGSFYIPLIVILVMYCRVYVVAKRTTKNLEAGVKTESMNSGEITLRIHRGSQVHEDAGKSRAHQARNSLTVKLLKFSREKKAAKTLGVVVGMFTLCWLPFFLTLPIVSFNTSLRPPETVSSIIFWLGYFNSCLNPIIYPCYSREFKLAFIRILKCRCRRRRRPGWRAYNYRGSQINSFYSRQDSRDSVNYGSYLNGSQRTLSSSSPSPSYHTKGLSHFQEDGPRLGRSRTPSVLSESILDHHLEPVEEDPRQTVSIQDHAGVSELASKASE
UniProt P18841, whole entry, looked up: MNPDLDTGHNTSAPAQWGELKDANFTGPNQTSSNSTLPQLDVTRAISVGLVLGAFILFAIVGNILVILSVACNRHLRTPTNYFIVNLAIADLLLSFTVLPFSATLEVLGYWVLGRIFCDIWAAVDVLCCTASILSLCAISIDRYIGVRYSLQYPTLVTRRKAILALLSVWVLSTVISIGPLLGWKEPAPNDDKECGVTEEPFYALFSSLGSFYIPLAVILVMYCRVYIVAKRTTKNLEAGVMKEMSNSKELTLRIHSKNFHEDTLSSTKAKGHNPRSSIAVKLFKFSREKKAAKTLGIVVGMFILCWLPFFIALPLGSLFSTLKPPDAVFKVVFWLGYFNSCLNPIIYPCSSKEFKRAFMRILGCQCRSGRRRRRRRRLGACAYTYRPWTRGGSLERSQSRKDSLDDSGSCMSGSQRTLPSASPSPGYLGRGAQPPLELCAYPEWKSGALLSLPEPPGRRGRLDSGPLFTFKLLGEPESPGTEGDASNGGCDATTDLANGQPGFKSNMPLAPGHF

Tests used:
[1] = biological target: ZFα1BB-E327D/S330F-AR (Danio rerio, UniProt Q5U3D9, E327D/S330F); test: IP-one HTRF functional assay
[2] = test system: 5-dpf zebrafish larvae
[3] = biological target: zebrafish WT α1BB-AR (Danio rerio, UniProt Q5U3D9); test: IP-one HTRF functional assay; assay type: cell-based; settings: read-out: IP-one functional assay IC50; inhibition of 10 µM NE-induced IP1 accumulation, transfected COS-1 cells, mean ± SEM (n = 6)
[4] = biological target: T1, Hamster α1B-AR (Mesocricetus auratus, UniProt P18841); test: IP-one HTRF functional assay; settings: read-out: IP-one functional assay IC50; inhibition of 1 µM NE-induced IP1 accumulation, transfected COS-1 cells, mean ± SEM (n = 3)
[5] = test system: fish; settings: cited from earlier work
[6] = biological target: E327D/S330F-ZFα1BB-AR (Danio rerio, UniProt Q5U3D9, E327D/S330F); test: 3H-prazosin radioligand binding assay; settings: read-out: Radioligand binding assay IC50; 0.5 nM 3H-prazosin, COS-1 membranes, 60 min room temperature, mean ± SEM (n = 3)
[7] = biological target: WT ZF α1BB-AR (Danio rerio, UniProt Q5U3D9); test: 3H-prazosin radioligand binding assay; settings: read-out: Radioligand binding assay IC50; 0.5 nM 3H-prazosin, COS-1 membranes, 60 min room temperature, mean ± SEM (n = 3)
[8] = biological target: T1, Hamster α1B-AR; test: 3H-prazosin radioligand binding assay; settings: read-out: Radioligand binding assay IC50; 0.5 nM 3H-prazosin, COS-1 membranes, 60 min room temperature, mean ± SEM (n = 3)

## NC[C@H](O)c1ccc(O)c(O)c1 [NE, norepinephrine]
[1]; read-out: EC50, NE-activated signalling to IP1, transfected COS-1 cells, IP-one HTRF
  EC50: 239 nM

## N=C(N)NCCC[C@H](NC(=O)[C@H](Cc1c[nH]c2ccccc12)NC(=O)[C@H](CC(N)=O)NC(=O)[C@@H](N)Cc1ccccc1)C(=O)N[C@H]1CSSC[C@@H](C(N)=O)NC1=O
[2]
  IC50: > 10000 nM

## CC[C@H](C)[C@@H]1NC(=O)[C@H](CC(C)C)NC(=O)[C@@H]2CSSC[C@@H](C(N)=O)NC(=O)[C@H](Cc3ccccc3)NC(=O)[C@H](CCCCN)NC(=O)[C@H](CCCCN)NC(=O)[C@H](Cc3c[nH]cn3)NC(=O)[C@H](CC(N)=O)NC(=O)[C@H](CCCNC(=N)N)NC(=O)[C@H](CCCNC(=N)N)NC(=O)[C@H](CSSC[C@H](NC(=O)[C@H](CCCNC(=N)N)NC(=O)[C@H](Cc3c[nH]c4ccccc34)NC(=O)[C@@H](N)CC(N)=O)C(=O)N2)NC(=O)[C@H](C)NC(=O)[C@@H]2CCCN2C1=O
[2]
  IC50: 1340 nM

## CC[C@H](C)[C@@H]1NC(=O)[C@H](CC(C)C)NC(=O)[C@@H]2CSSC[C@@H](C(N)=O)NC(=O)[C@H](Cc3ccccc3)NC(=O)[C@H](CCCCN)NC(=O)[C@H](CCCCN)NC(=O)[C@H](Cc3c[nH]cn3)NC(=O)[C@H](CC(N)=O)NC(=O)[C@H](CCCNC(=N)N)NC(=O)[C@H](CCCNC(=N)N)NC(=O)[C@H](CSSC[C@H](NC(=O)[C@@H](N)CCCNC(=N)N)C(=O)N2)NC(=O)[C@H](C)NC(=O)[C@@H]2CCCN2C1=O
[2]
  IC50: 3160 nM

## CC[C@H](C)[C@@H]1NC(=O)[C@H](CC(C)C)NC(=O)[C@@H]2CSSC[C@@H](C(N)=O)NC(=O)[C@H](Cc3ccccc3)NC(=O)[C@H](CCCCN)NC(=O)[C@H](CCCCN)NC(=O)[C@H](Cc3c[nH]cn3)NC(=O)[C@H](CC(N)=O)NC(=O)[C@H](CCCNC(=N)N)NC(=O)[C@H](CCCNC(=N)N)NC(=O)[C@H](CSSC[C@H](NC(=O)[C@H](CCCNC(=N)N)NC(=O)[C@@H](N)Cc3c[nH]c4ccccc34)C(=O)N2)NC(=O)[C@H](C)NC(=O)[C@@H]2CCCN2C1=O
[2]
  IC50: 4090 nM

## CC[C@H](C)[C@@H]1NC(=O)[C@H](CC(C)C)NC(=O)[C@@H]2CSSC[C@@H](C(N)=O)NC(=O)[C@H](Cc3ccccc3)NC(=O)[C@H](CCCCN)NC(=O)[C@H](CCCCN)NC(=O)[C@H](Cc3c[nH]cn3)NC(=O)[C@H](CC(N)=O)NC(=O)[C@H](CCCNC(=N)N)NC(=O)[C@H](CCCNC(=N)N)NC(=O)[C@H](CSSC[C@H](NC(=O)[C@H](CCCNC(=N)N)NC(=O)[C@H](Cc3c[nH]c4ccccc34)NC(=O)[C@H](CC(N)=O)NC(=O)[C@@H](N)Cc3ccccc3)C(=O)N2)NC(=O)[C@H](C)NC(=O)[C@@H]2CCCN2C1=O
[3]
  IC50: 15300 nM
[2]
  EC50: 190 nM
  IC50: 190 nM
[4]
  IC50: 1560 nM
[1]; IP-one IC50 ratio
  improvement in potency at E327D/S330F mutant compared with WT ZF receptor: 6 fold
[1]; read-out: IP-one functional assay IC50, inhibition of 10 µM NE-induced IP1 accumulation, transfected COS-1 cells, mean ± SEM (n = 4)
  IC50: 2610 nM
[5]
  effect of injection into fish, in words: did not reveal a phenotype
[6]
  IC50: 88.5 nM
[7]
  IC50: 3200 nM
[8]
  IC50: 4.39 nM

## CC[C@H](C)[C@@H]1NC(=O)[C@H](CC(C)C)NC(=O)[C@@H]2CSSC[C@@H](C(N)=O)NC(=O)[C@H](Cc3ccccc3)NC(=O)[C@H](CCCCN)NC(=O)[C@H](CCCCN)NC(=O)[C@H](Cc3c[nH]cn3)NC(=O)[C@H](CC(N)=O)NC(=O)[C@H](CCCNC(=N)N)NC(=O)[C@H](CCCNC(=N)N)NC(=O)[C@H](CSSC[C@H](N)C(=O)N2)NC(=O)[C@H](C)NC(=O)[C@@H]2CCCN2C1=O
[2]
  IC50: > 10000 nM
